Results as given in PMC10368727, “Sequestration of histidine kinases by non-cognate response regulators establishes a threshold level of stimulation for bacterial two-component signaling” (Nature Communications, 2023).

Target: T1, phosphorylated, GFP-tagged HK PhoR (cytosolic catalytic domain) (M. tuberculosis, UniProt P71815)
T1 construct: also called PhoR-GFP; PhoR~P
T1 sequence: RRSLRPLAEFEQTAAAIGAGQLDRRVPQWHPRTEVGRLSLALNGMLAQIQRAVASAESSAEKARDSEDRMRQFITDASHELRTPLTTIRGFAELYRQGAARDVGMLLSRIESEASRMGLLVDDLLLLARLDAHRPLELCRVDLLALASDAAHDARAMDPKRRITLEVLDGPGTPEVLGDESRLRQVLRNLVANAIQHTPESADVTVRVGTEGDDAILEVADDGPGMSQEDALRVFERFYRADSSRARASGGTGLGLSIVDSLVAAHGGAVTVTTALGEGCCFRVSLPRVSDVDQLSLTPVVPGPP
Conditions: both partners purified

B1: response regulator DevR (natural protein)
chain: not shown
  Kd: 154 nM
